Pooled drug test results. Numbers come from NIAID ChemDB, via PubChem.

Common to all: host cell toxicity; measure: CC50

CCn: concentration that lowers growth or viability of the cells by n%.

structure	cells	method	result
CCCc1cn([C@H]2C[C@H](O)[C@@H](CO)O2)c(=S)nc1N	RPMI8226		>277.4 µM
CC1(C)[C@@H](CO)CC[C@@]1(C)Cn1cc(I)c(=O)[nH]c1=O	E6SM		>400 µg/mL
CCOC(=O)CCCCCOc1cccc(CN(C(=O)c2ccccc2)C(C)C)c1	HEK 293		>20 µM
CCc1cn([C@@H]2O[C@H](CO)[C@@H](O)[C@@H]2O)c(=S)[nH]c1=O	RPMI8226		>264.9 µM
CC1(C)[C@@H](CO)CC[C@@]1(C)Cn1cnc2c(Cl)ncnc21	E6SM		>400 µg/mL
CCOC(=O)CCCCCOc1cccc(CN(C(=O)c2ccc(-c3ccsc3)cc2)C(C)C)c1	RAJI		>20 µM
C=C[C@@H](O)C1=C[C@@H](n2cnc3c(N)ncnc32)[C@H](O)[C@@H]1O	P4		>208 µM
Nc1c(-c2nc3ccccc3[nH]2)cc(-c2ccccc2)n1-c1ccncc1	MCF-7 breast cancer cells	sulforhodamine	0.705 µg/mL
C[C@@H](O)C1=C[C@@H](n2cnc3c(N)ncnc32)[C@H](O)[C@@H]1O	P4		>36 µM
CCCC[C@@H](CN[C@H](CN)CCN)NCc1cccc2ccccc12	J774	fluorescence	101.4 µM
C[C@@H]1Cc2nn3c(c2CN1C(=O)c1ccc(Cl)c(C#N)c1Cl)C(=O)N([C@@H](C)c1ccc(OC(F)F)cc1)CC3	HepG2.117	luminescence	>50 µM
CCCCc1ccc(C(=O)N=Nc2[nH]c(N)c3c2ccc2ccccc23)nc1	L6		34 nM
COc1cc(/C=C/c2ccc3c(c2)[C@H](c2cc(OC)cc(OC)c2)[C@@H](c2ccc(O)cc2)O3)cc(OC)c1	MDCK	MTT	>128 µg/mL
CN(C)S(=O)(=O)c1cccc2c(N=NC(=O)c3ccccn3)[nH]c(N)c12	L6		297 nM
C=CCCC1=NCC(OC(C)=O)c2cc(OC)c(OC)cc21	HepG2		>20 µM
C[C@@H]1Cc2nn3c(c2CN1C(=O)c1ccc(Cl)c(C#N)c1)C(=O)N([C@H](C)c1ccc2c(c1)OC(F)(F)O2)CC3	HepG2.117	luminescence	>50 µM
Nc1c(N=Cc2ccc(C(F)(F)F)cc2)cc2cccnc2c1Cl	BHK-21	MTT	25 µM
O=c1[nH]c(=S)ccn1[C@@H]1O[C@H](COP(=O)(O)O)[C@@H](O)[C@H]1O	HeLa-CD4/CCR5	XTT	>200 µg/mL
Nc1nc2c(ncn2CC(CO)CCO)c(=O)[nH]1	HL		>800 µM
Nc1c(-c2nc3ccccc3[nH]2)cc(-c2ccccc2)n1-c1cccc(Cl)c1	MCF-7 breast cancer cells	sulforhodamine	1.7 µg/mL
Cc1cn([C@H]2O[C@@H](CO)[C@H](O)[C@H]2F)c(=O)[nH]c1=O	H-1		1000 µM
CC[C@@H](O)C1=C[C@@H](n2cnc3c(N)ncnc32)[C@H](O)[C@@H]1O	P4		>206 µM
Cc1ccc(NC(=O)NCCSCc2ccc(CNC(C)C)o2)cc1Cl	U1		>100 µM
C[C@H]1O[C@@H](O[C@H]2CC[C@@]3(C)C(CC[C@]4(C)C3C=CC3=C5CC(C)(C)CC[C@]5(CO)[C@H](O)C[C@]34C)[C@]2(C)CO)[C@H](O)[C@@H](O[C@@H]2O[C@H](CO)[C@@H](O)[C@H](O)[C@@H]2O)[C@@H]1O	Huh7.5	XTT	740.4 µM
COc1cc(NC(C)CCCN)c2nc(C(F)(F)F)cc(C)c2c1-c1ccccc1	RAW 264.7		3.1 µg/mL
C[C@@H]1Cc2nn3c(c2CN1C(=O)c1ccc(Cl)c(C#N)c1)C(=O)N(Cc1ccc2c(c1)OC(F)(F)O2)CC3	HepG2.117	luminescence	11.3 µM
Nc1c(-c2nc3ccccc3[nH]2)cc(-c2ccccc2)n1-c1ccc(Cl)cc1	A549 lung cancer cells	resazurin	12 µM
CCc1cn([C@H]2C[C@H](O)[C@@H](CO)O2)c(=S)nc1N	RPMI8226		>288.6 µM
Nc1nc2c(ncn2[C@@H]2O[C@H](CO)[C@@H](O)[C@@H]2O)c(=O)[nH]1	CCRF-HSB-2		2.8 µg/mL
CCOC(=O)CCCCCOc1cccc(CN(C(=O)c2ccc(-c3cn(S(=O)(=O)c4ccccc4)c4ccccc34)cc2)C(C)C)c1	RAJI		>20 µM
C[C@@H]1Cc2nn3c(c2CN1C(=O)c1ccc(Cl)c(C#N)c1)C(=O)N(Cc1ccc2n[nH]nc2c1)CC3	HepG2.117	luminescence	>50 µM
C/C(=N\NC(=O)c1ccncc1)c1cccc([N+](=O)[O-])c1	HEL cells	MTT	13 µg/mL
CC(O)c1cn([C@@H]2O[C@H](CO)[C@@H](O)[C@@H]2O)c(=S)[nH]c1=O	RPMI8226		>263.5 µM
CC(C)N(Cc1ccc(OCC(=O)O)cc1)C(=O)c1ccc(-c2ccc3c(c2)OCO3)cc1	BJ		>20 µM
Nc1c(-c2nc3ccccc3[nH]2)cc(-c2ccccc2)n1-c1nc2ccccc2[nH]1	MCF-7 breast cancer cells	sulforhodamine	1.62 µg/mL
CC[C@H](O)C1=C[C@@H](n2cnc3c(N)ncnc32)[C@H](O)[C@@H]1O	P4		>206 µM
COC(=O)CCCC1=NCCc2cc(OC)c(OC)cc21	RAJI		<7.5 µM
Nc1[nH]c(N=NC(=O)c2ccccn2)c2cccc(Sc3ccccc3)c12	L6		7 nM
CCCCOc1nc(N)c2c(n1)N(Cc1cccc(CN3CCCC3)c1)CC(=O)N2	Macrophage	luminescence	22 µM
CCOC(=O)COc1ccc(CNC(C)C)cc1	RAJI		>20 µM
Nc1[nH]c(N=NC(=O)c2ccccn2)c2c(Sc3ccccc3)cccc12	L6		237 nM
Cc1cn([C@@H]2O[C@H](CO)[C@@H](O)[C@@H]2O)c(=S)nc1N	RPMI8226		>275.1 µM
C[C@@H]1Cc2nn3c(c2CN1C(=O)c1ccc(Cl)c(C#N)c1)C(=O)N([C@H](C)c1ccnc(C(F)(F)F)c1)CC3	HepG2.117	luminescence	>50 µM
COc1ccccc1-c1c(OC)cc(NC(C)CCCNC(=O)OC(C)(C)C)c2nc(C(F)(F)F)cc(C)c12	RAW 264.7		>80.2 µg/mL
CCCC[C@@H](CN[C@H](CN)CCCCNC)NCc1cccc2ccccc12	J774	fluorescence	104.3 µM
COc1ccc(/C(C)=N/NC(=O)c2ccncc2)c(OC)c1	HEL cell	MTT	10 µg/mL
CCc1cn([C@@H]2O[C@H](CO)[C@@H](O)[C@@H]2O)c(=S)nc1N	RPMI8226		>264.9 µM
COc1cc(NC(=O)Cc2cn(OC)c3ccccc23)cc(OC)c1	HEK293T	luminescence	>30 µM
CC1(C)[C@@H](CO)CC[C@@]1(C)Cn1cnc2c(=O)[nH]cnc21	E6SM		>400 µg/mL
N#Cc1cc(-c2ccccc2)n(-c2nc3ccccc3[nH]2)c1N	MCF-7 breast cancer cells	sulforhodamine	1.28 µg/mL
Cc1cn([C@@H]2O[C@H](CO)[C@@H](O)[C@@H]2O)c(=O)[nH]c1=O	HELF		150 µg/mL
C=C1CC2C[C@@H](OC(=O)c3ccccc3)[C@H]3[C@@](CO)(C(=O)O)CCC[C@]3(C)C23CCC1C3	HELA229		0.78 µg/mL
CCc1cn([C@H]2C[C@H](O)[C@@H](CO)O2)c(=S)[nH]c1=O	RPMI8226		>288.6 µM
Nc1ncnc2c1ncn2[C@@H]1O[C@H](CO)[C@@H](O)[C@@H]1O	RK II		320 µg/mL
N#Cc1cc(-c2ccccc2)n(Cc2nc3ccccc3[nH]2)c1N	MCF-7 breast cancer cells	sulforhodamine	0.515 µg/mL
Nc1[nH]c(N=NC(=O)c2ccccn2)c2c(Sc3ccc(F)cc3)cccc12	L6		102 nM
CCN(CC)Cc1cnc2c(C(=O)Nc3ccc4[nH]ncc4c3)cnn2c1	293T	MTT	>20 µM

The first 4 rows once more:

structure,cells,method,result
CCCc1cn([C@H]2C[C@H](O)[C@@H](CO)O2)c(=S)nc1N,RPMI8226,,>277.4 µM
CC1(C)[C@@H](CO)CC[C@@]1(C)Cn1cc(I)c(=O)[nH]c1=O,E6SM,,>400 µg/mL
CCOC(=O)CCCCCOc1cccc(CN(C(=O)c2ccccc2)C(C)C)c1,HEK 293,,>20 µM
CCc1cn([C@@H]2O[C@H](CO)[C@@H](O)[C@@H]2O)c(=S)[nH]c1=O,RPMI8226,,>264.9 µM

An empty or dashed field is not shown. Neighbouring rows are from separate reports.